A mixed list of measured activities; the numbers were collected in NIAID ChemDB.

Shared fields: whole-cell or culture tests; organism: Cryptosporidium parvum; endpoint: EC50

Two numbers with a dash give a range or band. ECn: concentration that inhibits the pathogen or its effect by n%. Blank or dashed fields: not listed here. Rows are shuffled and stem from different studies.

structure,strain,cells,read by,value
CCSc1c2ccccc2nc2cc(N)ccc12,-,-,-,>1 µg/mL
CCn1nc(C)c2c1C(=O)c1ccccc1C2=O,-,-,-,>100 µM
CCSc1c2ccccc2nc2cc([N+](=O)[O-])ccc12,-,-,-,>10 µg/mL
O=C1c2cccc(O)c2C(=O)c2cn[nH]c21,-,-,-,>100 µM
O=C1/C(=C/c2ccc(O)c(O)c2)Oc2cc(O)ccc21,-,-,-,10–25 µM
Nc1ccc2c(SCc3ccc([N+](=O)[O-])cc3)c3ccccc3nc2c1,-,-,-,>10 µg/mL
NC[C@@H]1O[C@H](O[C@H]2[C@@H](O)[C@H](O[C@@H]3[C@@H](O)[C@H](N)C[C@H](N)[C@H]3O[C@H]3O[C@H](CO)[C@@H](O)[C@H](O)[C@H]3N)O[C@@H]2CO)[C@H](N)[C@@H](O)[C@@H]1O,IOWA,MDCK,luminescence,1184 µg/mL
CCn1nc(Cc2ccccc2)c2c1C(=O)c1c(OC(C)=O)c(C)c(C)c(OC(C)=O)c1C2=O,-,-,-,>100 µM
NC[C@@H]1O[C@H](O[C@H]2[C@@H](O)[C@H](O[C@@H]3[C@@H](O)[C@H](N)C[C@H](N)[C@H]3O[C@H]3O[C@H](CO)[C@@H](O)[C@H](O)[C@H]3N)O[C@@H]2CO)[C@H](N)[C@@H](O)[C@@H]1O,-,MDBK,cell count,<500 µg/mL
Cn1cc2c(n1)C(=O)c1cc3ccccc3c(O)c1C2=O,-,-,-,>100 µM
CC[C@H]1OC(=O)[C@H](C)[C@@H](O[C@H]2C[C@@](C)(OC)[C@@H](O)[C@H](C)O2)[C@H](C)[C@@H](O[C@@H]2O[C@H](C)C[C@H](N(C)C)[C@H]2O)[C@](C)(O)C[C@@H](C)CN(C)[C@H](C)[C@@H](O)[C@]1(C)O,-,A549,-,>8 µg/mL
CC(=O)Oc1cccc2c1C(=O)c1c(cnn1C)C2=O,-,-,-,10–25 µM
COc1cc(/C=C/C=C\c2ccccc2)oc(=O)c1C,-,-,-,>50 µM
NC[C@@H]1O[C@H](O[C@H]2[C@@H](O)[C@H](O[C@@H]3[C@@H](O)[C@H](N)C[C@H](N)[C@H]3O[C@H]3O[C@H](CO)[C@@H](O)[C@H](O)[C@H]3N)O[C@@H]2CO)[C@H](N)[C@@H](O)[C@@H]1O,-,-,-,>100 µM
CC(=O)Oc1ccccc1C(=O)Nc1ncc([N+](=O)[O-])s1,-,A549,-,<8 µg/mL
CCN(CC)CCSc1c2ccccc2nc2cc(Cl)ccc12,-,-,-,10–50 µg/mL
O=C1COc2cc(O)ccc21,-,-,-,>50 µM
CCN(CC)CCSc1c2ccccc2nc2ccccc12,-,-,-,>50 µg/mL
COc1cc(/C=C/C=C\c2ccc3c(c2)OCO3)oc(=O)c1,-,-,-,>50 µM
CCCCCCSc1c2ccccc2nc2ccccc12,-,-,-,>50 µg/mL
NC[C@@H]1O[C@H](O[C@H]2[C@@H](O)[C@H](O[C@@H]3[C@@H](O)[C@H](N)C[C@H](N)[C@H]3O[C@H]3O[C@H](CO)[C@@H](O)[C@H](O)[C@H]3N)O[C@@H]2CO)[C@H](N)[C@@H](O)[C@@H]1O,-,MDBK,antigen,<2 µg/mL
O=C1c2cccc(Cl)c2C(=O)c2cn[nH]c21,-,-,-,10–25 µM
CSc1c2ccccc2nc2ccccc12,-,-,-,>10 µg/mL

For reference, 2 entries again:

structure | strain | cells | read by | value
CC(=O)Oc1ccccc1C(=O)Nc1ncc([N+](=O)[O-])s1 | - | A549 | - | <8 µg/mL
O=C1/C(=C/c2ccc(O)c(O)c2)Oc2cc(O)ccc21 | - | - | - | 10–25 µM